Reference: patent publication US20080102078

Target: E. coli heat-labile enterotoxin subunit B pentamer (B5), from human enterotoxigenic E. coli H10407, Escherichia coli H10407 (human enterotoxigenic), P0CK94 22-124

Substance	The ratio of AB5/AB5 + B5 (%)
LTA(S61F), mutated subunit A of LTh(S61F)	70
LTA(S61H), mutated subunit A of LTh(S61H)	60
LTA(S61K), mutated subunit A of LTh(S61K)	92
LTA(S61R), mutated subunit A of LTh(S61R)	85
LTA(S61Y), mutated subunit A of LTh(S61Y)	57
